Laboratory results from patent publication US6514692B2, “Method for treatment of immunodeficiency virus infection” (priority 1996, dated 2003).
Read-outs that look alike come from different tables or passages of the source.

Test system: SK1 isolate of HIV-1
Source text: ME180 cells, a cervical epithelial cell line, were obtained from the American Type Culture Collection. These cells were thawed from liquid nitrogen and grown in RPMI 1640 medium supplemented with 10t fetal bovine serum, glutamine and antibiotics. The cells were adherent and were trypsinized (0.5% trypsin in HBSS) to remove them from the flask for passaging and use in assays. For use in the microtiter transmission inhibition assay, ME180 cells were trypsinized, washed and seeded in 96-well flat bottom microtiter plates (COSTAR) at a density of 5×10^3 cells per well. The cells were incubated at 37° C. for 24 hours prior to the tart of the assay. H9 cells chronically infected with he SK1 isolate of HIV-1 were treated with 200 μg/ml mitomycin C for 60 minutes at 37° C. After treatment the cells were washed three times with tissue culture medium. The chronically infected lymphocytes were added to each well at a density of 2×10^4 cells per well. […] At six days post-co-cultivation, the supernatant was removed from the wells and evaluated for the quantity of p24 antigen by ELISA. […] The amount of virus production in wells treated with various concentrations of the peptides was evaluated with appropriate cell and virus controls. […]

## dextran sulfate
No mucin
  TI (toxicity index, TC50/IC50): TI = 500
With 150 μg/ml pig mucin
  TI (toxicity index, TC50/IC50): TI = 500
